Data on one sequence can be found in paper PMC3621830.

The target of this data set is CovR, acetyl phosphate-treated (phospho-CovR) (UniProt Q8DY68). The data set is described as follows: EMSA. The settings on record: shift at lower concentration than unphosphorylated CovR, probe 3.3 nM, EMSA: 3.3 nM biotin-labelled probe, 20 min at room temperature, native 6% polyacrylamide gel, chemiluminescence, salt and pH not stated, recombinant protein, residues 1-229, protein details: His tag (pET21b+ NdeI/XhoI, C-terminal implied), label: biotin (labelled probe), unlabelled as competitor, probe letters rebuilt from the primers and the genome.

The exact form of at least one protein or probe is not confirmed.

With “ATAATAGATTATTTTAGATAGAAACAACCCAAACCCTTAGATTTTACTAAGGGTTTTTTGTGTGGAAAATAACATATATATCCGATTAAATTATAAAAAAATAATCTTTTGATTATTTTTACTAGATTGTTGAGCAAAAAAACATTAAAAAAAAGATGTTTATTTTAATAAAATGTAAATAAATTAAAGAAAAGTGTTGAAATAAAAAACTCCAAGTTATATAATTAGTTAAGGAACTCAAATTAAATTAAAATAAACGTGGTCCTATCCTAATAAATTAGGATTTTCAACTAACTATATAAAGGAGCGAATATG (double strand) [PbibA (bibA promoter fragment)]”, the binding result is reported as “binds”.
